Results of unrelated studies side by side (data: NIAID ChemDB).

Common to all: host cell toxicity; cells: TZM-bl; endpoint: CC50

Blank or dashed fields: not listed here.

compound | read by | value
O=C1OC(C(Cl)c2ccccc2Br)c2ccccc21 | MTT | 59.2 µM
c1cc(CN2CCCNCCNCCCNCC2)ccc1CN1CCCNCCNCCCNCC1 |  | >1000 µM
CCOC(=O)C(N)(C1=CNC2C=C(C#N)C=CC12)C(F)(F)F | MTT | 64.3 µM
CCOC(=O)C(O)(c1c[nH]c2ccc(Cl)cc12)C(F)(F)F | MTT | 138 µM
CCC(Br)C1(c2ccc(F)cc2)OC(=O)c2ccccc21 | MTT | 230 µM
Cc1nnc(C(C)C)n1C1C[C@H]2CC[C@@H](C1)N2CC[C@H](NC(=O)C1CCC(F)(F)CC1)c1ccccc1 | XTT | >20 µM
CCOC(=O)C(O)(c1c[nH]c2ccc(C#N)cc12)C(F)(F)F | MTT | 83.3 µM
CC(Cl)C1(c2ccc(F)cc2)OC(=O)c2ccccc21 | MTT | 276 µM
COC(=O)C(O)(c1c[nH]c2ccc(C#N)cc12)C(F)(F)F | MTT | 167 µM
C/C1=C/C[C@@H](/C(C)=C/c2csc(C)n2)OC(=O)C[C@H](O)C(C)(C)C(=O)[C@H](C)[C@@H](O)[C@@H](C)CCC1 |  | 0.012 µM
C/C=C/[C@@H]1O[C@H](C/C=C/C=C(\C)C[C@@H](C)/C=C(C)\C=C\[C@H]2CC=CC(=O)O2)C[C@@H](O)[C@@H]1C | ATP / luminescence | 0.0046 µM
CO[C@H]1CCCC[C@@H](c2ccccc2)OC(=O)C(C)[C@@]2(O)OC([C@@H](C)[C@H](O)[C@H]2OC)[C@@H](C)/C=C/[C@H]1OC | ATP | >10 µM
CC1=C\[C@@H](C)[C@@H](CC(C)C)OC(=O)/C=C/C=C/C=C/CCCCC[C@@H](OS(=O)(=O)O)[C@H](O)[C@]2(O)O[C@@H](C[C@H](O)[C@H]2C)[C@@H](C)C(=O)\C=C\1 |  | 8.18 µM
Cc1ccc(-c2ccc3c(c2)C=C(C(=O)Nc2ccc(C[N+](C)(C)C4CCOCC4)cc2)CCC3)cc1 |  | >10 µM
CC1=C\[C@@H](C)[C@@H](CC(C)C)OC(=O)/C(C)=C/C=C/C=C/CCC[C@@H](O)CC(=O)[C@H](C)[C@@H](O)CC[C@@H](C)C(=O)\C=C\1 |  | 0.36 µM
CCCCCOC(=O)C[C@H](NP(=O)(CO[C@@H](CF)COc1nccc(N)n1)Oc1ccccc1)C(=O)OCCCCC | luminescence | 42.19 µM
O=C(O)c1ccc(C2=N/C(=C/c3c(O)[nH]c(=S)[nH]c3=O)C=C2)cc1O | XTT | >20 µM
Cc1ccnc2c1NC(=O)c1cccnc1N2C1CC1 | MTT | 150 µM
CCCCCOC(=O)C[C@H](NP(=O)(COC(CF)Cn1ccc(N)nc1=O)Oc1ccccc1)C(=O)OCCCCC | visual reading | 68.98 µM
CCOC(=O)C(N)(c1c[nH]c2ccc(C=O)cc12)C(F)(F)F | MTT | >127 µM
CCOC(=O)C(O)(c1c[nH]c2ccc([N+](=O)[O-])cc12)C(F)(F)F | MTT | 63.2 µM
C[C@@H]1CCCC[C@H]1Oc1cc(CCc2ccccc2)[nH]c(=O)c1I | XTT / absorbance | 164 µM
O=C(O)[C@@H](CS(=O)(=O)c1ccc([N+](=O)[O-])cc1)NC(=O)C1(c2ccc3ccccc3c2)CCN(Cc2ccc3ccccc3c2)CC1 | luminescence | 60.27 µM
CCOC(=O)C(O)(c1c[nH]c2ccccc12)C(F)(F)F | MTT | 279 µM
C[C@H](Cn1cnc2c(N)ncnc21)OCP(=O)(O)O | visual reading | >100 µM
COC(=O)C(N)(c1c[nH]c2ccccc12)C(F)(F)F | MTT | 95.51 µM
CCOC(=O)C(O)(c1c[nH]c2cccc([N+](=O)[O-])c12)C(F)(F)F | MTT | 122 µM
CCOC(=O)C(N)(C1=CNC2C=CC=C(O)C12)C(F)(F)F | MTT | >132 µM
COC(=O)C(O)(c1c[nH]c2ccc([N+](=O)[O-])cc12)C(F)(F)F | MTT | 274 µM
CC(Cl)C1(c2ccc(F)cc2)OC(=O)c2c(Cl)c(Cl)c(Cl)c(Cl)c21 | MTT | 188 µM
CCOC(=O)C(N)(c1c[nH]c2ccc(C#N)cc12)C(F)(F)F | MTT | 90 µM
Cc1nnc(C(C)C)n1C1C[C@H]2CC[C@@H](C1)N2CC[C@H](NC(=O)C1CCC(F)(F)CC1)c1ccccc1 |  | >1000 µM
CCOC(=O)C(N)(c1c[nH]c2ccccc12)C(F)(F)F | MTT | 69.9 µM
CC(Cl)C1(c2ccc(F)cc2)OC(=O)c2c(Br)c(Br)c(Br)c(Br)c21 | MTT | 133 µM
COC(=O)c1cccc2[nH]cc(C(O)(C(=O)OC)C(F)(F)F)c12 | MTT | 199 µM
CCOC(=O)C(N)(c1cn(CCC(C)C)c2ccccc12)C(F)(F)F | MTT | >112 µM
C(=C1/CNC/C(=C\c2ccco2)C1=NNc1ccccc1)/c1ccco1 | XTT | >58 µM
COC(=O)C(O)(c1cn(C(=O)OC(C)(C)C)c2ccccc12)C(F)(F)F | MTT | 50.1 µM
CCOC(=O)c1cccc(Cn2ccc3ccc(-c4ccc5ccn(Cc6cccc(C(=O)O)c6)c5c4)cc32)c1 | resazurin | >50 µM
NC1C(O)OC(CO)C(O)C1O | MTT / absorbance | 20.53 µM

For reference, 3 entries again:

compound | read by | value
Cc1ccnc2c1NC(=O)c1cccnc1N2C1CC1 | MTT | 150 µM
CCOC(=O)C(O)(c1c[nH]c2ccccc12)C(F)(F)F | MTT | 279 µM
Cc1nnc(C(C)C)n1C1C[C@H]2CC[C@@H](C1)N2CC[C@H](NC(=O)C1CCC(F)(F)CC1)c1ccccc1 |  | >1000 µM

CCn: concentration that lowers growth or viability of the cells by n%. Rows are shuffled and stem from different studies.